This assay has as its target 3BC315 IgG. The assay is described as follows: ELISA. The following applies: parent: est. 0.50; read off a plot. (In general: ELISA stands for enzyme-linked immunosorbent assay.)

With “D7324-tagged BG505 SOSIP.664 trimer produced in 293T cells W623A”, the response amounted to 0.1 OD450.

The values are drawn from paper PMC4586043, “Antibodies to a conformational epitope on gp41 neutralize HIV-1 by destabilizing the Env spike” (2015).
